Measured values from several laboratories, pooled; numbers as filed in NIAID ChemDB.

All rows: growth or infection tests; agent: Varicella zoster virus; endpoint: EC50

An empty or dashed field is not shown. Conditions beyond the fields shown may differ between rows. a–b is a range or a potency band. ECn: concentration that inhibits the pathogen or its effect by n%.

compound,cells,strain,read by,result
Nc1nc2c(ncn2C[C@]2(CO)C[C@H]2CO)c(=O)[nH]1,VERO,,cytopathic effect,1–10 µM
c1csc(-c2cc3ccccn3c2)c1,MRC-5,G-31,plaque count,1 µM
CC1(C)[C@H](CCO)C[C@@H]1n1cnc2c(=O)[nH]cnc21,,OKA (TK+),plaque count,>50 µg/mL
O=c1[nH]c(=O)n(C2C[C@H](CO)[C@H]2CO)cc1C=CBr,WI-38,ITO,plaque count,0.01–0.05 µM
Cc1cn(C(CCN=[N+]=[N-])OCCO)c(=O)[nH]c1=O,HFF,,cytopathic effect,>200 µM
CCCCOC(=O)c1ccc2cc(-c3ccccc3)cn2c1,MRC-5,G-31,plaque count,20 µM
Cc1cccn2c(CSCc3ccccc3)cnc12,HEL,YS/R (TK-),plaque count,>1 µg/mL
O=c1[nH]c(=O)n([C@@H]2C[C@@H](O)[C@H](CO)O2)cc1/C=C/Br,HEL 299,,,>100 µM
Nc1nc2c(ncn2COC(CO)CO)c(=O)[nH]1,VERO,,plaque count,3.71 µM
CO[C@H]1C[C@H](n2cc(/C=C/Br)c(=O)[nH]c2=O)O[C@@H]1COP1(=O)OCc2cccc(C)c2O1,HELF,OKA,plaque count,24 µg/mL
Cc1cc(C)n2cc(-c3ccccc3)cc2c1,MRC-5,G-31,plaque count,10 µM
C[C@@]1(O)[C@@H](CO)O[C@@H](n2cnc3c(N)ncnc32)[C@@H]1O,VERO,,cytopathic effect,>5 µg/mL
Nc1nc2c(ncn2[C@@H](CCO)OCCO)c(=O)[nH]1,HFF,,cytopathic effect,>200 µM
Cc1ccccc1CSCc1cnc2c(Br)cc(Br)c(C)n12,HEL,OKA (TK+),plaque count,>5 µg/mL
O=C(O)/C=C/c1cn([C@@H]2O[C@H](CO)[C@@H](O)[C@@H]2O)c(=S)[nH]c1=O,MRC-5,CAQU (TK+),plaque count,40.5 µM
O=C(O)CP(=O)(O)O,HEL,OKA-H12,plaque count,7.4 µg/mL
Nc1nc2c(ncn2CCC(CO)CO)c(=O)[nH]1,HEL,Oka PMEDAP-resistant,cytopathic effect,2 µM
O=c1[nH]c(=O)n([C@@H]2O[C@H](CO)[C@@H](O)[C@@H]2O)cc1/C=C/Cl,,Kawaguchi,plaque count,0.00188 µg/mL
O=c1[nH]c(=S)n([C@@H]2O[C@H](CO)[C@@H](O)[C@@H]2O)cc1/C=C/c1ccccc1,MRC-5,CAQU (TK+),plaque count,2.6 µM
O=c1[nH]c(=O)n([C@@H]2O[C@H](CO)[C@@H](O)[C@@H]2O)cc1/C=C/Br,HEL,YS-W3 G19 H3,plaque count,0.0006 µg/mL
O=c1[nH]c(=O)n([C@H]2C[C@H](O)[C@@H](CO)O2)cc1/C=C/I,HEF,CAQU,plaque count,0.0008 µg/mL
Cc1cn([C@@H]2O[C@H](CO)[C@@H](O)[C@@H]2O)c(=O)[nH]c1=O,,Kawaguchi (BrdU-resistant),plaque count,>10 µg/mL
Cn1cc(C(=O)NCc2ccc(Cl)cc2)c(=O)c2cc(CN3CCOCC3)ccc21,HFF,ST varicella isolate,plaque count,0.4 µM
Nc1ncnc2c1ncn2[C@@H]1C=C(CO)[C@@H](O)[C@H]1O,HeLa,07/1 YS/R (TK-),cytopathic effect,40 µg/mL
Cc1c(Br)cc(Br)c2ncc(CSCc3ccc(Cl)cc3Cl)n12,HEL,YS (TK+),plaque count,>20 µg/mL
CCOC(=O)CC1OP(=O)(OC[C@H]2O[C@@H](n3cc(/C=C/Br)c(=O)[nH]c3=O)C[C@@H]2O)Oc2cccc(Cl)c21,HELF,OKA,plaque count,0.006 µg/mL
CC1(C)[C@H](CCO)C[C@@H]1n1nnc2c(N)ncnc21,,07/1 (TK-),plaque count,9.3 µg/mL
O=c1[nH]c(=O)n([C@@H]2O[C@H](CO)[C@@H](O)[C@@H]2O)cc1/C=C/Br,CCRF-HSV-B,OKA,plaque count,0.013 µg/mL
Nc1nc(N)c2ncn(CCOCP(=O)(O)O)c2n1,HEL,Oka CF1742-resistant,cytopathic effect,2.6 µM
Cc1c(Br)cc(Br)c2ncc(CSCc3ccccc3Cl)n12,HEL,OKA (TK+),plaque count,>5 µg/mL
Cc1cc2nc3c4ccccc4n(CCN(C)C)c3nc2cc1C,HL,ULF,,0.5–3 µM
Nc1nc2c(ncn2C=C2CC2CO)c(=O)[nH]1,VERO,,cytopathic effect,10–100 µM
Cc1cn([C@@H]2O[C@H](CO)[C@@H](O)[C@@H]2O)c(=S)nc1N,MRC-5,Kanno-Kohmura (TK-),plaque count,>275.1 µM
Nc1nc2c(ncn2COCCO)c(=O)[nH]1,,,cytopathic effect,0.1 µg/mL
CC(NC(=S)Nc1ccc(NC(=O)c2ccccc2F)cc1C#N)c1ccc(F)cc1,HFF,SC44,ELISA,0.14 µg/mL
O=c1[nH]c(=O)n([C@H]2C[C@H](O)[C@@H](CO)O2)cc1I,HEF,VEX411,cytopathic effect,0.4 µg/mL
Nc1nc2c(ncn2[C@@H]2C=C[C@H](CO)[C@@H](O)C2)c(=O)[nH]1,E6SM,07/1 (TK-),cytopathic effect,2.1 µg/mL
CCc1cn([C@@H]2S[C@H](CO)[C@@H](O)[C@@H]2F)c(=O)[nH]c1=O,CCRF-HSB-2,OKA,plaque count,101 µM
c1ccn2cc(-c3cncs3)cc2c1,MRC-5,G-31,plaque count,40–50 µM
Cc1c(Br)cc(Br)c2ncc(CSCc3ccccc3F)n12,HEL,07/1 (TK-),plaque count,>5 µg/mL
Nc1nc2c(ncn2CC(CO)CCO)c(=O)[nH]1,VERO,,plaque count,2 µM
O=c1[nH]c(=O)n([C@H]2C[C@H](O)[C@@H](COP3(=O)OCc4cccc(-c5ccccc5)c4O3)O2)cc1/C=C/Br,HELF,OKA,plaque count,0.02 µg/mL
O=c1ccn([C@@H]2O[C@H](CO)[C@](O)(C(F)(F)F)[C@H]2O)c(=O)[nH]1,VERO,,cytopathic effect,>50 µg/mL
Nc1nc2c(ncn2CC(CO)OCP(=O)(O)O)c(=O)[nH]1,WI-38,,plaque count,0.2 µM
O=c1[nH]c(=O)n([C@@H]2O[C@H](CO)[C@@H](O)[C@@H]2F)cc1/C=C/Br,CCRF-HSB-2,OKA,plaque count,0.023 µM
Cc1cn([C@@H]2O[C@H](CO)[C@@H](O)[C@@H]2O)c(=O)[nH]c1=O,HEF,VEX411,cytopathic effect,0.04 µg/mL
Cc1cn(C(CCO)SCCO)c(=O)[nH]c1=O,HFF,,cytopathic effect,>200 µM
CCCc1cn([C@H]2C[C@H](O)[C@@H](CO)O2)c(=S)[nH]c1=O,MRC-5,Kanno-Kohmura (TK-),plaque count,>277.6 µM
Cc1cn([C@@H]2O[C@H](CO)[C@H]2CO)c(=O)[nH]c1=O,HFF,DKG,plaque count,0.03 µg/mL
Nc1nc(=S)n([C@@H]2O[C@H](CO)[C@@H](O)[C@@H]2O)cc1/C=C/c1ccccc1,MRC-5,Kanno-Kohmura (TK-),plaque count,>258.7 µM
CCCCCCCCc1cc2cn([C@H]3C[C@H](F)[C@@H](CO)O3)c(=O)nc2o1,,07 (TK-),,>20 µM
O=C(O)CP(=O)(O)O,HEF,VEX411,cytopathic effect,20 µg/mL
COc1ccc(-c2cc3ccccn3c2)cc1OC,MRC-5,G-31,plaque count,>40 µM
C=C1[C@H](CO)[C@@H](O)C[C@@H]1n1cnc2c(=O)[nH]c(N)nc21,WI-38,,plaque count,12 µM
Nc1nc2c(ncn2[C@@H]2C[C@H](CO)[C@H]2CO)c(=O)[nH]1,WI-38,ELLEN,plaque count,0.2 µM
O=c1[nH]c(=O)n([C@H]2C[C@H](O)[C@@H](CO)O2)cc1/C=C/Br,HEF,OKA,,0.003 µM
O=C(NCc1ccc(Cl)cc1)c1c[nH]c2ccc(C#CCO)cc2c1=O,,NAG,plaque count,0.1 µM
O=C(NCc1ccc(Cl)cc1)c1c[nH]c2c(F)cccc2c1=O,,20 isolates,plaque count,1.1 µM
Cc1ccc(CSCc2cnc3c(Br)cc(Br)c(C)n23)cc1,HEL,OKA (TK+),plaque count,>20 µg/mL
O=c1[nH]c(=S)n([C@@H]2O[C@H](CO)[C@@H](O)[C@@H]2O)cc1CCO,MRC-5,HOSEN (TK+),plaque count,>244.8 µM
CC(O)CCCCCC(CCCCCCCCCCCCCC1CC(=O)OC[C@H]2O[C@@H](OC(CCCCCCCCCCCC(CCCCCC(C)O)O[C@@H]3O[C@H](CO)[C@@H](O)[C@H](O)[C@H]3O)CC(=O)OC[C@@H]3O[C@H](O1)[C@@H](O)[C@H](O)[C@H]3O)[C@H](O)[C@@H](O)[C@@H]2O)O[C@@H]1O[C@H](CO)[C@@H](O)[C@H](O)[C@H]1O,VERO,OKA,cytopathic effect,3 µg/mL
O=c1[nH]c(=O)n([C@H]2C[C@H](O)[C@@H](CO)O2)cc1/C=C/Br,HEF,Batson,plaque count,0.0013 µg/mL
c1ccc(-c2cc3ccccn3c2)nc1,MRC-5,G-31,plaque count,10 µM
O=c1[nH]c(=O)n([C@@H]2O[C@H](CO)[C@@H](O)[C@@H]2O)cc1/C=C/Cl,CCRF-HSB-2,OKA,plaque count,0.0056 µM
Cn1cc(C(=O)NCc2ccc(Cl)cc2)c(=O)c2cc(CN3CCOCC3)ccc21,VERO,,plaque count,0.34 µM
CC1(C)[C@H](CCO)C[C@@H]1n1nnc2c(=O)[nH]cnc21,,OKA (TK+),plaque count,>50 µg/mL
O=c1[nH]c(=O)n([C@@H]2S[C@H](CO)[C@@H](O)[C@@H]2F)cc1I,CCRF-HSB-2,OKA,plaque count,17.5 µM
Nc1nc2c(ncn2[C@@H]2CO[C@H](CO)[C@@H](O)C2)c(=O)[nH]1,VERO,,cytopathic effect,1–10 µM
Cc1c(Br)cc(Br)c2ncc(CSCCc3ccccc3)n12,HEL,YS (TK+),plaque count,3.3 µg/mL
COc1ncnc2c1ncn2[C@@H]1O[C@H](CO)[C@@H](O)[C@@H]1O,MRC-5,Pritchard,cytopathic effect,0.5 µM
Nc1nc2c(ncn2CSC(CO)CO)c(=O)[nH]1,MRC-5,6350,plaque count,26 µM
CCCc1cn([C@H]2C[C@H](O)[C@@H](CO)O2)c(=S)nc1N,MRC-5,Kanno-Kohmura (TK-),plaque count,>277.4 µM
Cc1c(Br)cc(Br)c2ncc(CSCc3ccc(Cl)c(Cl)c3)n12,HEL,YS (TK+),plaque count,4 µg/mL
Nc1nc2c(ncn2[C@@H]2C=C[C@H](CO)[C@@H](O)C2)c(=O)[nH]1,,KOS (TK-),,2.1 µg/mL

The last 5 rows once more:

compound,cells,strain,read by,result
COc1ncnc2c1ncn2[C@@H]1O[C@H](CO)[C@@H](O)[C@@H]1O,MRC-5,Pritchard,cytopathic effect,0.5 µM
Nc1nc2c(ncn2CSC(CO)CO)c(=O)[nH]1,MRC-5,6350,plaque count,26 µM
CCCc1cn([C@H]2C[C@H](O)[C@@H](CO)O2)c(=S)nc1N,MRC-5,Kanno-Kohmura (TK-),plaque count,>277.4 µM
Cc1c(Br)cc(Br)c2ncc(CSCc3ccc(Cl)c(Cl)c3)n12,HEL,YS (TK+),plaque count,4 µg/mL
Nc1nc2c(ncn2[C@@H]2C=C[C@H](CO)[C@@H](O)C2)c(=O)[nH]1,,KOS (TK-),,2.1 µg/mL